The results in this text go back to PubChem BioAssay AID651724 (National Center for Advancing Translational Sciences (NCATS), 2012).

This is a selection; strong and weak results do not stand in their true shares. Some salts and complexes are drawn in separate pieces, as the source files them; their charges need not balance. The source made the active and inactive calls. Rule as the data show it: active = activity change below about -65%; inconclusive = mostly about -30% to -63%; inactive = weaker than that.
% is scaled to controls: 0 for no effect and ±100 for the full control effect.

For the assay, the system named is CtBP / adenovirus E1A interaction (AlphaScreen). As to the kind of experiment: qHTS Assay for Inhibitors of the CtBP/E1A Interaction. The note with it: AlphaScreen GST-E1A/His-CtBP binding, 1536-well; active compounds read low. The source says:
Carboxyl-terminal binding protein (CtBP) is a co-repressor for many transcription factors. […] Our studies have shown that CtBP is overexpressed in multiple human cancers, including lung, breast, and head and neck cancers. In particular, it is over-expressed in 50% of primary lung cancer and 90% of metastatic lesions. CtBP suppresses epithelial-specific genes as well as genes critical for apoptosis, providing the underlying molecular mechanism for its role in tumorigenesis. […] Based on the above data, we hypothesize that 1) CtBP suppresses the pro-apoptotic and epithelial genes, therefore overexpressed CtBP in human cancer cells increases EMT and cancer survival; 2) decreasing CtBP's function represents a targeted therapy for lung cancer and potentially multiple cancer types. As a co-repressor, CtBP binds to E1A and other transcription factors through a conserved peptide motif to carry out its action. Inhibiting this interaction using small molecules can potentially serve as effective cancer therapeutics.
To this end, we have developed a homogenous AlphaScreen assay targeting the CtBP/E1A interaction. We performed a large scale HTS of the Molecular Libraries Small Molecule Repository (MLSMR) to identify inhibitors of the CtBP/E1A interaction as potential anti-cancer therapeutics. Compounds identified can also be used as chemical probes to better understand the biological functions of CtBP.
NIH Chemical Genomics Center [NCGC]
NIH Molecular Libraries Probe Centers Network [MLPCN]
Assay Submitter (PI): Rui Zhao, University of Colorado Denver
The first step of the 5uL AlphaScreen assay is to dispense assay buffer (50 mM Tris, pH 8.0, 300 mM NaCl, 0.05% BSA, 0.02% Tween 20, 1 mM TCEP) into a Greiner 1536 white solid bottom microtiter plate (789175-F). Five microliters is added to Column 1, 4 uL is added to Column 2 and 3 uL is added to Columns 3 through 48. A 5X protein solution (125 nM GST-E1A protein + 125 nM His-tagged CtBP protein) is mixed and 1 uL is dispensed to Columns 3-48. Using a 1536 pintool, 23 nL of compound is transferred to the assay plate and the plate is incubated with a lid at 37 deg C in the dark for two hours. A solution of 5X AlphaScreen beads is mixed (50 ug/mL Glutathione linked donor beads + Nickel chelated acceptor beads) and 1 uL is dispensed to Columns 2-48. The assay plate is incubated for one hour, with a lid, at 37 deg C in the dark. The plate is read using a Perkin Elmer Envision using an AlphaScreen protocol.
A general note: qHTS replaces the single test concentration by a dilution series.
In the case of `O=C(OC1CN2CCC1CC2)c1ccc([N+](=O)[O-])cc1` (stereo not given), the activity change was inactive: 6.65%.

Take `CN1CCC(Nc2cccc(F)c2)CC1`: the activity change was inactive: -12.9%.

Take `O=C(NCC1(N2CCCCC2)CCCCC1)c1cncc(Br)c1`: the activity change was inactive: 3.83%.

Take `COc1ccc2c(c1O)-c1c(O)c(OC)cc3c1[C@H](C2)[N+](C)(C)CC3.O=[N+]([O-])c1cc([N+](=O)[O-])c([O-])c([N+](=O)[O-])c1[O-]`: the activity change is inactive: 0.392%.

As to `COc1ccc(C(c2nnnn2C2CCCC2)N2CCC(n3c(=O)[nH]c4ccccc43)CC2)cc1` (stereo not given), the activity change was inactive: -7.92%.

With `O=[N+]([O-])c1cc([N+](=O)[O-])c(Nc2ccc(Cl)cc2)c([N+](=O)[O-])c1`, the activity change is inactive: -11.7%.

In the case of `CCCOc1ccc(C(=O)NCC2(N(C)C)CCCCC2)cc1OC`, the activity change is inactive: 0.954%.

With `Cc1ccc(C(=O)NCC2(N(C)C)CCCCC2)o1`, the activity change was inactive: 7.98%.

For the compound `O=C(NCC1(N2CCCCC2)CCCCC1)c1ccc(OC(F)F)cc1`, the activity change is inactive: 5.74%.

Regarding `CC(C)(C)n1nnnc1C(c1ccccc1OC(F)(F)F)N1CCC(n2c(=O)[nH]c3ccccc32)CC1` (stereo not given), the activity change is inactive: -4.63%.

As to `O=c1[nH]c2ccccc2n1C1CCN(C(c2ccccc2OC(F)(F)F)c2nnnn2C2CCCC2)CC1` (stereo not given), the activity change is inactive: -1.52%.

As to `N#CC1(Nc2ccccc2)CCN(CCc2ccccc2)CC1`, the activity change was inactive: 0%.

With `CCN1CCC(Nc2ccc(Cl)cc2)CC1`, the activity change is inactive: 1.52%.

For the compound `O=C(NCC1(N2CCCCC2)CCCCC1)c1cccc([N+](=O)[O-])c1`, the activity change is inactive: -13.5%.

`CSc1ccc(C(=O)NCC2(N3CCOCC3)CCCCC2)cc1`: the activity change was inactive: -7.2%.

With `O=[N+]([O-])c1cc([N+](=O)[O-])c(NCC2CCS(=O)(=O)C2)c([N+](=O)[O-])c1` (stereo not given), the activity change is inactive: -20.1%.

As to `O=C(NCC1(N2CCCCC2)CCCCC1)c1cccc(C(F)(F)F)c1`, the activity change is inactive: 3.39%.

`O=C(NCC1(N2CCOCC2)CCCCC1)c1cc(=O)[nH]c2ccccc12`: the activity change is inactive: 0.996%.

For `COc1cc(C(=O)NCC2(N3CCCCC3)CCCCC2)ccc1OC(F)F`, the activity change was inactive: 3.57%.

For `COc1ccc(NC2CCN(C(=O)OC(C)(C)C)CC2)cc1`, the activity change is inactive: -9.99%.

With `CC(C)c1ccc(C(=O)NCC2(N3CCOCC3)CCCCC2)cc1`, the activity change is inactive: 3.49%.

Consider `CN1CCN(CCOC(=O)C(O)(c2ccccc2)c2ccccc2)CC1`, for which the activity change was inactive: -1.04%.

As to `CCCCn1nnnc1C(c1cccc2ccccc12)N1CCC(n2c(=O)[nH]c3ccccc32)CC1` (stereo not given), the activity change is inactive: -12.2%.

With `O=C1CCN(Cc2ccccc2)CC1`, the activity change is inactive: 1.4%.

With `CC(C)(C)n1nnnc1C(c1ccccc1)N1CCC(n2c(=O)[nH]c3ccccc32)CC1` (stereo not given), the activity change is inactive: -3.15%.

Consider `CCOc1ccc(C)cc1CN(CCCl)CCCl`, for which the activity change was inactive: 4.93%.

Turning to `CCOC(=O)N1CCC(Nc2ccc(F)cc2)CC1`, the activity change was inactive: -5.37%.

As for `COc1ccc(NC2CCN(CCc3ccccc3)CC2)c(OC)c1`, the activity change was inactive: -17.9%.

With `CCCCOc1ccc(C(=O)NCC2(N3CCOCC3)CCCCC2)cc1`, the activity change was inactive: -0.0606%.

For `CCCCn1nnnc1C(c1cc2ccccc2o1)N1CCC(n2c(=O)[nH]c3ccccc32)CC1` (stereo not given), the activity change is inactive: -7.02%.

Regarding `O=P1(N(CCCl)CCCl)SCCCS1`, the activity change is inactive: 4.67%.

For `O=C(NCC1(N2CCCCC2)CCCCC1)c1ccc(F)cc1`, the activity change is inactive: 4.04%.

As for `O=c1[nH]c2ccccc2n1C1CCN(C(c2ccccc2)c2nnnn2C2CCCCC2)CC1` (stereo not given), the activity change was inactive: 4.66%.

As to `CCOC(=O)N1CCC(Nc2cccc(C)c2)CC1`, the activity change is inactive: -0.147%.

Take `COc1cc(C(=O)NCC2(N(C)C)CCCCC2)ccc1OC(F)F`: the activity change is inactive: -15.1%.

Regarding `O=c1[nH]c2ccccc2n1C1CCN(C(c2cccc3ccccc23)c2nnnn2C2CCCC2)CC1` (stereo not given), the activity change is inactive: -13.1%.

Turning to `COc1ccc(C(=O)NCC2(N3CCCCC3)CCCCC2)c(OC)c1OC`, the activity change is inactive: -1.03%.

Take `CCC(c1nnnn1C1CCCC1)N1CCC(n2c(=O)[nH]c3ccccc32)CC1` (stereo not given): the activity change was inactive: 0.381%.

As to `COc1ccc(C(=O)NCC2(N3CCCCC3)CCCCC2)cc1`, the activity change is inactive: -13.8%.

Take `CCCCn1nnnc1C(CC)N1CCC(n2c(=O)[nH]c3ccccc32)CC1` (stereo not given): the activity change is inactive: -0.809%.

Regarding `O=C(NCC1(N2CCCCC2)CCCCC1)c1cccs1`, the activity change is inactive: -4.31%.

With `CCCCn1nnnc1C(c1cccs1)N1CCC(n2c(=O)[nH]c3ccccc32)CC1` (stereo not given), the activity change is inactive: -24%.

As to `O=C(NCC1(N2CCCCC2)CCCCC1)c1ccc(=O)[nH]c1`, the activity change was inactive: -1.47%.

With `Cc1cccc(NC2(C#N)CCN(Cc3ccccc3)CC2)c1`, the activity change is inactive: 6.66%.

Take `CSc1ccccc1C(=O)NCC1(N2CCCCC2)CCCCC1`: the activity change was inactive: -0.995%.

As to `Cc1cc(C)cc(N(C(=O)c2ccccc2)C2CCN(C(=O)OC(C)(C)C)CC2)c1`, the activity change is inactive: 2.34%.

Regarding `O=C(NCC1(N2CCCCC2)CCCCC1)c1ccc(Cl)nc1`, the activity change was inactive: 12.7%.

Take `O=c1[nH]c2ccccc2n1C1CCN(C(c2ccccc2OC(F)(F)F)c2nnnn2C2CCCCC2)CC1` (stereo not given): the activity change was inactive: 2.28%.

Regarding `O=C(NCC1(N2CCOCC2)CCCCC1)c1cc2ccccc2o1`, the activity change is inactive: 0%.

For `COc1ccc(Cl)cc1C(=O)NCC1(N2CCOCC2)CCCCC1`, the activity change is inactive: 0%.

For the compound `O=C1C(O)=C([N+](=O)[O-])C(=O)C(O)=C1[N+](=O)[O-]`, the activity change was inactive: -13.6%.

As to `O=C(NCC1(N2CCCCC2)CCCCC1)c1ccc(Cl)s1`, the activity change is inactive: 1.38%.

Turning to `O=c1[nH]c2ccccc2n1C1CCN(C(c2cc3ccccc3o2)c2nnnn2C2CCCCC2)CC1` (stereo not given), the activity change is inactive: -3.04%.

For `O=C(OC1CN2CCC1CC2)C1c2ccccc2Oc2ccccc21` (stereo not given), the activity change was inactive: -12.7%.

Consider `CCCCn1nnnc1C(c1ccc(OC)cc1)N1CCC(n2c(=O)[nH]c3ccccc32)CC1` (stereo not given), for which the activity change was inactive: -7.33%.
